# Percent effect of library compounds

The values are deposited in ChEMBL (CHEMBL3988442, “University of Dundee, Small-Polar-MMV Screening Library” (2021)).

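Whole-cell growth test on Mycobacterium tuberculosis, read after 4 days in a medium based on cholesterol and the lipid DPPC; the read-out is not stated. Compounds at 500 µM. The record gives no direction; compounds that gave an IC50 in retests scored well above the rest, so higher reads as more growth inhibition. Of about 18,000 compounds tested this way, about 900 (5%) reached 50% or more in at least one test.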

Results are given as percent effect. How 0% and 100% were set is not recorded. Most values in the screen are low, and negative values occur. The entries come from a sample that favours strong results.

| Compound | percent effect |
|---|---|
| `O=C(Cn1ccccc1=O)Nc1nc2c(s1)CCC2` | -20.45% |
| `NCC1(N2CCN(c3ccccc3)CC2)CCOCC1` | 24.42% |
| `COCCNCc1ccc(OC)c(OC)c1OC` | -5.017% |
| `COc1cccc(CS(=O)(=O)Nc2ccc(C)nc2)c1` | 48.92% |
| `CCOC(=O)CNC(=O)c1ccc2c(c1)OCCO2` | 61.92% |
| `O=C(CCC1CCCC1)N1CCNCC1` | 34.01% |
| `CNS(=O)(=O)CCCNC(C)c1ccc(C)o1` (centres undefined) | 5.324% |
| `NCc1ccc(CNC(=O)C2CCCCO2)cc1` (centres undefined) | 0.1175% |
| `CN(CCCN)C(=O)CCCn1ccnc1` | 3.751% |
| `Cc1c(C(=O)N2CCNC(=O)C2)oc2ccc(Cl)cc12` | 30.11% |
| `NCCC(=O)N1CCCC(CCc2ccc(F)cc2)C1` (centres undefined) | 67.15% |
| `CNCC(=O)Nc1cc(F)c(OC)cc1OC` | 3.113% |
| `O=C1CNc2cccc(F)c2N1` | -107.2% |
| `CC[C@H](N)C(=O)N(C)CCOc1cccc(Cl)c1` | 49.34% |
| `CC1(O)C(=O)Nc2ccccc21` (centres undefined) | -30.22% |
| `COC(=O)Cc1cc(OC)ccc1S(N)(=O)=O` | 3.559% |
| `Cc1nonc1CC(=O)NC(C)c1nc(C2CC2)no1` (centres undefined) | 14% |
| `CCS(=O)(=O)NCCSc1nc2cc(F)c(F)cc2[nH]1` | 58.75% |
| `CCCS(=O)(=O)NC(Cc1ccccn1)[C@H]1C[C@@H](O)C1` (some centres undefined) | -19.74% |
| `COCC(C)Nc1cncc(Br)c1` (centres undefined) | 4.778% |
| `CN(Cc1ccoc1)C(=O)CN(C)C1CCS(=O)(=O)C1` (centres undefined) | -2.174% |
| `CN(Cc1ncc[nH]1)c1cc(C2CC(N)C2)nc(N)n1` (centres undefined) | -15.41% |
| `Cc1cc(NC2(CO)CCC2)n2ncnc2n1` | -7.111% |
| `O=C(NCCOc1ncccc1Cl)c1cc(Cl)c[nH]1` | 88.47% |
| `CCOC(=O)c1cnn(C)c1` | 0.02516% |
| `O=C(Nc1ccccn1)C1CCS(=O)(=O)C1` (centres undefined) | 1.734% |
| `CCOc1cccc(CSC(C)CO)n1` (centres undefined) | 36.48% |
| `COc1ccc(CCC(=O)N2CCCNCC2)cc1` | 4.786% |
| `CCOc1ccccc1NC(=O)NC1CCN(C)CC1` | 19.42% |
| `c1cnc2cc(-c3nc(C4CCOC4)no3)nn2c1` (centres undefined) | 5.698% |
| `N[C@@H]1CC[C@@H](NS(=O)(=O)N2CCc3ccccc3C2)C1` | 8.359% |
| `CC(C)N(CC(F)F)C(=O)CNC(=O)c1cccs1` | -6.718% |
| `COc1cc(C)c([S+](C)[O-])cc1OC` (centres undefined) | 2.85% |
| `Cc1cccc(C(=O)Nc2cc[nH]n2)c1F` | 6.081% |
| `CN1CCC(N(C)C(=O)Nc2ccc(C#N)cc2)CC1` | -13.19% |
| `O=C(NCCOc1ncccc1Cl)c1cscn1` | -10.66% |
| `Cn1cc(Br)cc1C(=O)NCCC(O)C(F)(F)F` (centres undefined) | -6.141% |
| `COC(=O)CC1CCCCN1CC(N)=O` (centres undefined) | 6.19% |
| `CCC(C)(C)C(=O)NCC(C)(C)N1CC[S+]([O-])CC1` | -11.12% |
| `CCOc1ccc(CSc2nnc[nH]2)cc1` | 55.64% |
| `CC(C)c1nnc(NC(=O)N(C)C)s1` | 1.03% |
| `NC(=O)Nc1cccc(C(=O)Nc2ccc(Cl)cn2)c1` | 88.87% |
| `CN(C1CCCC1)S(=O)(=O)NCCNc1ccccn1` | 79.93% |
| `Cc1ccc2ncc(CO)cc2c1` | 8.514% |
| `NC(=O)NCCCN1CCc2ccccc2C1` | 5.512% |
| `CNC(=O)CCN1CCC(=Cc2ccccc2)CC1` | 66.54% |
| `CC(C)C(NC(=O)C1=COCCO1)c1ccccc1` (centres undefined) | -8.072% |
| `NC1COc2ccccc21` (centres undefined) | -1.405% |
| `CC(=O)NCCNCc1ccc(C#N)cc1` | -6.498% |
| `Cc1cc(C(=O)NCCc2ccccc2F)[nH]n1` | 24.24% |
| `CC(=O)NC1CCCNC1` (centres undefined) | 16.13% |
| `Cn1c(=O)c2c(ncn2CCC#N)n(C)c1=O` | -2.535% |
| `COCCN(C)C(=O)Nc1cccc(Cl)c1` | 53.99% |
| `CC(C)Cc1nc(COCc2ncc[nH]2)no1` | 2.798% |
| `Cc1ccc(C)c(NC(=O)C(C)N2CCC(O)CC2)c1` (centres undefined) | -3.928% |
| `CC(=O)c1cc(CN2CC[C@](C)(O)[C@@H](O)C2)n(C)c1` | 5.675% |
| `CN(CCOc1ccc(Cl)cc1)C(=O)C(C)(C)CN` | 65.96% |
| `CC1CCN(S(=O)(=O)N2CCN(S(C)(=O)=O)CC2)CC1` | 25.09% |
| `Cc1cc(C)nc(N2CCOCC2C(N)=O)n1` (centres undefined) | 1.626% |
| `O=S1(=O)CCC(NC2CCCC2)C1` (centres undefined) | -7.93% |
| `O=c1c2cccnc2ncn1CCOCC(F)F` | -17.59% |

For reference, 4 entries once more:

- COc1cccc(CS(=O)(=O)Nc2ccc(C)nc2)c1 | 48.92%
- CC(C)Cc1nc(COCc2ncc[nH]2)no1 | 2.798%
- O=C(Nc1ccccn1)C1CCS(=O)(=O)C1 (centres undefined) | 1.734%
- Cc1c(C(=O)N2CCNC(=O)C2)oc2ccc(Cl)cc12 | 30.11%